Anti-infective test results gathered from many reports (values: NIAID ChemDB through PubChem).

Shared fields: growth or infection tests; organism: Aspergillus flavus

MIC50, MIC90 and the like: level of inhibition, or share of isolates inhibited.

structure,strain or isolate,method,setting,endpoint,tested at,value
Cc1nc(OCc2nc(-c3ccc(O)cc3)n[nH]2)c2ccccc2n1,MTCC 277,-,-,MIC100,-,25 µg/mL
Cn1c(=O)c(-c2[nH][nH]c(=O)c2N=Nc2ccccc2)c(O)c2ccccc21,ATCC 28542,-,-,MIC,-,>100 µg/mL
Oc1ccc(-c2n[nH]c(COc3ncnc4ccccc34)n2)cc1,MTCC 277,-,-,MIC100,-,50 µg/mL
Cn1c(=O)c(-c2[nH][nH]c(=O)c2C=Nc2ccc(N)cc2)c(O)c2ccccc21,ATCC 28542,-,-,MIC,-,50 µg/mL
CCC1/C=C/C=C/C=C/C=C/C(OC2OC(C)C(O)C(N)C2O)CC2OC(O)(CC(O)CC(O)C(O)/C=C/C(=O)OC1C)CC(O)C2C(=O)O,CGMCC 3.289,broth dilution,-,MFC,-,12.56 µg/mL
Cc1ccccc1OCc1n[nH]c(=S)n1N1C(=O)CSC12CCc1ccccc12,-,-,-,MIC100,-,25 µg/mL
COc1ccc(/C=c2\c(=O)[nH][nH]\c2=C2/C(=O)c3ccccc3N(C)C2=O)cc1OC,ATCC 28542,-,-,MIC,-,>100 µg/mL
O=C1CSC2(CCc3ccccc32)N1n1c(COc2ccc(Cl)cc2Cl)n[nH]c1=S,-,-,-,MIC100,-,12.5 µg/mL
CC1/C=C/C=C/C=C/C=C/C(O[C@@H]2O[C@H](C)[C@@H](O)[C@H](N)[C@@H]2O)CC2OC(O)(CC(O)CC(O)C/C=C/C(=O)OC1C)CC(O)C2C(=O)O,CGMCC 3.289,broth dilution,-,MIC100,-,6.25 µg/mL
Cc1ccc2c(c1)C(C=NNC(=O)N1c3ccccc3C=Cc3ccccc31)C(c1ccccc1)=N2,MTCC-1973,agar diffusion,-,zone,1000 µg/mL,5 mm
COc1ccccc1/C=C1\SC(c2ccccc2OC)N(NC(=O)CNC(=O)c2ccncc2)C1=O,-,agar diffusion,-,zone,100 µg/mL,13.8 mm
Clc1ccc(C(c2ccccc2)n2nnc3ccccc32)cc1,-,broth dilution,-,MFC,-,>256 µg/mL
COc1ccccc1C1SCC(=O)N1NC(=O)CNC(=O)c1ccncc1,-,agar diffusion,-,zone,50 µg/mL,12 mm
CCCCCCCCOC(=O)[C@]1(O)C[C@@H](O)[C@@H](O)[C@H](OC(=O)/C=C/c2ccc(O)c(O)c2)C1,AMP 9,absorbance,-,MIC80,-,2700 µM
CCOc1ccc2c(C(=O)N3NC(=NC)SC=C3c3cc4ccccc4oc3=O)cc(=O)oc2c1,-,broth dilution,-,MIC50,-,0.1 µg/mL
c1ccc(C(c2ccccc2)n2cnc3ccccc32)cc1,-,broth dilution,-,MFC,-,>256 µg/mL
O=C(NN=CC1C(c2ccccc2)=Nc2ccccc21)N1c2ccccc2C=Cc2ccccc21,MTCC-1973,agar diffusion,-,zone,500 µg/mL,9 mm
FC(F)(F)c1nc(OCc2nc(-c3ccc(Cl)cc3)n[nH]2)c2ccccc2n1,MTCC 277,-,-,MIC100,-,25 µg/mL
CC(C)C[C@H](N)C(=O)O,ATCC 204304,broth dilution,-,MFC100,-,>18000 µg/mL
CN(C)c1ccc(/C=C2\SC(c3ccc(N(C)C)cc3)N(NC(=O)CNC(=O)c3ccncc3)C2=O)cc1,-,agar diffusion,-,zone,50 µg/mL,8.3 mm
Cc1ccc(-c2c(CN)c(=O)n3[nH]c(-c4c(O)c(O)c(O)c(O)c4CO)nc3c2CN)o1,-,-,-,MIC,-,100 µg/mL
Cc1cc(=O)n(-c2ccc(N=Cc3c(-c4c(O)c5ccccc5n(C)c4=O)[nH][nH]c3=O)cc2)n1C,ATCC 28542,-,-,MIC,-,>100 µg/mL
CC(C)CC(O)C(=O)O,ATCC 204304,broth dilution / visual reading,-,MFC100,-,>72000 µg/mL
Cc1ccc(-c2c(CN)c(=O)n3[nH]c(-c4ccc(Br)cc4)nc3c2CN)o1,-,-,-,MIC,-,100 µg/mL
O=c1c(/C=C/c2cccs2)n[nH]c(=S)n1NC=Nc1ccc(S(=O)(=O)Nc2ncccn2)cc1,-,agar,-,MIC90,-,146 µg/mL
CN(C)C=O,-,-,-,zone,50 µg/mL,6 mm
Cc1ccc(C2SCC(=O)N2NC(=O)CNC(=O)c2ccncc2)cc1,-,agar diffusion,-,zone,50 µg/mL,9 mm
C[C@H]1[C@H](O)[C@@H](C)/C=C/C=C/C=C/C=C/C=C/C=C/C=C/[C@H](O[C@@H]2O[C@H](C)[C@@H](O)[C@H](N)[C@@H]2O)C[C@@H]2O[C@](O)(C[C@@H](O)C[C@@H](O)CC[C@H](O)[C@@H](O)C[C@@H](O)CC(=O)O[C@H]1C)C[C@H](O)[C@H]2C(=O)O,ATCC 11496,visual reading,-,MFC,-,4 µg/mL
CCCCCOc1ccc(-c2cc(-c3ccc(C(=O)N[C@H]4C[C@@H](O)[C@@H](O)NC(=O)[C@@H]5[C@@H](O)[C@@H](C)CN5C(=O)[C@H]([C@H](O)CC(N)=O)NC(=O)[C@H]([C@H](O)[C@@H](O)c5ccc(O)c(OS(=O)(=O)O)c5)NC(=O)[C@@H]5C[C@@H](O)CN5C(=O)[C@H]([C@@H](C)O)NC4=O)cc3)no2)cc1,-,broth dilution,-,MIC50,-,0.016 µg/mL
Cc1ccc(/C=c2/sc3n(c2=O)C(N)=C(CN)C(c2ccc(C)o2)C=3CN)o1,-,-,-,MIC,-,25 µg/mL
O=C(CNC(=O)c1ccncc1)NN1C(=O)CSC1c1ccc([N+](=O)[O-])cc1,-,agar diffusion,-,zone,50 µg/mL,23 mm
C[C@@H]1C/C=C/C=C/C=C/C=C/[C@H](OC2O[C@H](C)[C@@H](O)[C@H](N)[C@@H]2O)CC2O[C@](O)(C[C@@H](O)C[C@H]3O[C@@H]3/C=C/C(=O)O1)C[C@H](O)[C@H]2C(=O)O,Species complex,-,-,MIC50,-,32 µg/mL
Clc1ccc(C(c2ccccc2)N2CCN(CCn3ccnc3)CC2)cc1,-,broth dilution,-,MFC,-,>256 µg/mL
Nc1ncccc1-c1cc(Cc2ccc(COc3ccccn3)cc2)no1,IFM50915,broth dilution,10% human serum,MIC50,-,0.25 µg/mL
O=C(CNC(=O)c1ccncc1)NN1C(=O)/C(=C/c2cccc(Br)c2)SC1c1cccc(Br)c1,-,agar diffusion,-,zone,100 µg/mL,16.6 mm
O=C1CSC2(CCc3ccccc32)N1n1c(-c2cccnc2)n[nH]c1=S,-,-,-,MIC100,-,6.25 µg/mL
CCN=C1NN(C(=O)Cc2cc(=O)oc3cc(O)ccc23)C(c2c(O)c3ccccc3oc2=O)=CS1,-,broth dilution,-,MIC50,-,1 µg/mL
O=C(CNC(=O)c1ccncc1)NN1C(=O)CSC1c1ccc(Cl)cc1,-,agar diffusion,-,zone,50 µg/mL,17 mm
CCN=C1NN(C(=O)c2cc(=O)oc3cc(OCC)ccc23)C(c2c(O)c3ccccc3oc2=O)=CS1,-,broth dilution,-,MIC50,-,1 µg/mL
COc1ccc(-c2n[nH]c(COc3ncnc4ccccc34)n2)cc1OC,MTCC 277,-,-,MIC100,-,12.5 µg/mL
CCN=C1NN(C(=O)c2cc(=O)oc3cc(OCC)ccc23)C(c2cc3ccccc3oc2=O)=CS1,-,broth dilution,-,MIC50,-,0.01 µg/mL
O=C(NN=CC1C(c2ccccc2)=Nc2ccc(Cl)cc21)N1c2ccccc2C=Cc2ccccc21,MTCC-1973,agar diffusion,-,zone,500 µg/mL,12 mm
O=C1CSC2(CCc3ccccc32)N1n1c(COc2ccc(Cl)cc2)n[nH]c1=S,-,-,-,MIC100,-,12.5 µg/mL
O=C(c1ccccc1)C(c1ccccc1)n1nnc2ccccc21,-,broth dilution,-,MFC,-,256 µg/mL

Repeating the final 2 entries:

structure,strain or isolate,method,setting,endpoint,tested at,value
O=C1CSC2(CCc3ccccc32)N1n1c(COc2ccc(Cl)cc2)n[nH]c1=S,-,-,-,MIC100,-,12.5 µg/mL
O=C(c1ccccc1)C(c1ccccc1)n1nnc2ccccc21,-,broth dilution,-,MFC,-,256 µg/mL

Zones are inhibition diameters on agar. Rows are shuffled and stem from different studies. Blank or dashed fields: not listed here.